{"source": "paper PMC10531167", "test_system": "Purα (in vitro translated, 35S, RNase-treated) + GST-Tat", "experiment": "GST pull-down (RNA reconstitution of protein complex)", "conditions": "RNA-bridged complex, indirect read-out, protein details: N-terminal GST", "note": "For at least one entry, the source does not settle the construct or the ends of the probe. At least one verdict was read from the data and is not stated in words by the source.", "data": [{"sequence": "CCCGGCCGGU [oligo-srRNA consensus GC-rich 10-mer]", "values": [{"measurement": "binding result", "result": "binds"}]}]}
